{"source": "paper PMC5663709", "key": {"[1]": {"biological_target": "recombinant hemagglutinin (HA) trimer of H7N9 A/Anhui/1-BALF_RG17/2013, ectodomain (influenza A virus A/Anhui/1-BALF_RG17/2013 (H7N9))", "experiment": "ELISA"}, "[2]": {"biological_target": "H5N1 VN/04 HA trimer expressed on the surface of 293 T cells (influenza A virus A/Vietnam/1203/2004 (H5N1)) (UniProt Q6DQ33)", "experiment": "FACS"}}, "data": [{"substance": "CR8020", "values": [{"measurement": "EC50", "setting": "[1]", "value": 0.069, "unit": "µg/mL"}]}, {"substance": "FI6V3", "values": [{"measurement": "EC50", "setting": "[2]", "value": 0.61, "unit": "µg/mL"}]}, {"substance": "F10", "values": [{"measurement": "EC50", "setting": "[2]", "value": 0.59, "unit": "µg/mL"}]}]}
